System: influenza virus (subtype H1N1)
Details: influenza virus (subtype, 2 h)

## CCCC[C@H](NC(=O)[C@@H](CC(C)C)NC(=O)[C@H](Cc1ccccc1)NC(=O)[C@H](CCCCN)NC(=O)[C@H](CO)NC(=O)[C@H](Cc1ccccc1)NC(=O)[C@H](Cc1c[nH]c2ccccc12)NC(=O)[C@@H]1CCCN1C(=O)[C@@H](NC(=O)[C@H](Cc1ccccc1)NC(=O)CNC(=O)CNC(=O)[C@@H](N)CSCC(=O)NCCOCCOCCOCCOCCC(=O)O[C@H]1CC[C@@]2(C)C(=CC[C@H]3[C@@H]4CC[C@H]([C@H](C)CCCC(C)C)[C@@]4(C)CC[C@@H]32)C1)C(C)C)C(=O)N[C@@H](CCCNC(=N)N)C(=O)N[C@H](C(=O)N[C@@H](CC(C)C)C(N)=O)[C@@H](C)CC [TL6.4, H-[Cholesterol-PEG4]-Cys-Gly-Gly-Phe-Val-Pro-Trp-Phe-Ser-Lys-Phe-DLeu-Nle-Arg-Ile-Leu-NH2]
  IC50: 6.02 µM
  IC90: 9.9 µM
